PubChem BioAssay AID1259414 | Drosophila RNAi Screening Center – 2018

- Aim: 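Fly genes that alter Wolbachia amount inside host cells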 (primary screen)
- System: Drosophila JW18 cells infected with Wolbachia
- Reagent: long dsRNA against Drosophila genes, 0.25 µg dsRNA per well of a 384-well plate
- Duration: 5 days
- Challenge: cells persistently infected with Wolbachia before knock-down; no added drug
- Measurement: 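Automated imaging of bacterial rRNA staining divided by host cell count, reported as plate-normalised robust z-score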
- Direction: Wolbachia per cell robust z: higher = more Wolbachia per host cell than the plate typical
- Hit rule: 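Active if absolute robust z reaches 1.5 in two or more of three replicates, leaving out multi- or no-target dsRNAs, genes unexpressed in JW18 and A1 wells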
The screen tested about 24,000 reagents; this is an unselected part of those with a known target gene and a result. Over the whole deposit, about 1,210 (5%) were called active. 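Inactive calls also include excluded dsRNAs with several or no targets, genes unexpressed in JW18, and well A1, regardless of score.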 Entries without a mark were called inactive. Names joined by + are all predicted targets of the reagent.

gene	dsRNA	Wolbachia per cell robust z, rep 1	Wolbachia per cell robust z, rep 2	Wolbachia per cell robust z, rep 3
l(2)34Fd (lethal (2) 34Fd)	DRSC01911	1.39	0.058	-6.35
smid (smallminded)	DRSC11398	-0.475	0.397	0.802
smid (smallminded)	DRSC28019	0.0414	-0.691	-1.49
CG10748	DRSC09797	-1.65	0.337	1.17
ArfGAP3 (ADP-ribosylation factor GTPase activating protein 3)	DRSC11794	0.199	-0.575	-0.588
ArfGAP3 (ADP-ribosylation factor GTPase activating protein 3)	DRSC25639	-0.262	0.296	-0.573
CG7379	DRSC16237	0.402	0.282	0.233
CG7379	DRSC24324	0.192	-0.158	0.341
Tsp42Ee (Tetraspanin 42Ee)	DRSC05947	-0.673	0.45	-0.719
Tsp42Ee (Tetraspanin 42Ee)	DRSC29024	-0.355	0.286	0.125
CG34126	DRSC02726	-0.238	0.626	-1.11
CG34126	DRSC22079	0.996	-1.81	-0.97
Ctl1 (Choline transporter-like 1)	DRSC08303	-0.00431	0.32	-0.406
Doa (Darkener of apricot)	DRSC13892	-0.315	-0.258	-0.438
Doa (Darkener of apricot)	DRSC13893	-1.04	-0.231	-0.748
Doa (Darkener of apricot)	DRSC13896	-0.734	-0.834	-0.458
Doa (Darkener of apricot)	DRSC13897	-1.86 (active)	-3.02	-2.06
Doa (Darkener of apricot)	DRSC16650	-8.53	0.388	0.695
Doa (Darkener of apricot)	DRSC26631	-0.256	0.305	0.178
Doa (Darkener of apricot)	DRSC40713	0.938	1.2	0.0268
gkt (glaikit)	DRSC00821	-1.24	0.0281	-0.144
cyr (cypher)	DRSC18017	-2.38	-1.35	0.00255
cyr (cypher)	DRSC18018	-0.714	-0.477	-0.356
Ag5r (Antigen 5-related)	DRSC19327	-3.28	0.134	0.228
Ag5r (Antigen 5-related)	DRSC29999	-0.674	0.32	-0.637
CG11400	DRSC06070	0.475	0.494	-0.276
isoQC (iso Glutaminyl cyclase)	DRSC11790	0.903	0.171	0.784
isoQC (iso Glutaminyl cyclase)	DRSC28241	-5.26	-0.265	-0.0363
Cpr49Ah (Cuticular protein 49Ah)	DRSC07204	1.95	-0.658	1.35
Cpr49Ah (Cuticular protein 49Ah)	DRSC29547	1.21	0.522	0.819
speck	DRSC04608	0.596	-0.523	-0.11
speck	DRSC27654	0.802	0.291	1.02
ana1 (anastral spindle 1)	DRSC16079	0.491	1.37	0.509
ana1 (anastral spindle 1)	DRSC21825	-0.581	-0.543	0.141
ana1 (anastral spindle 1)	DRSC30086	-0.0664	-0.441	-0.0279
CG33203	DRSC14876	-0.295	-0.235	-0.0323
CG33203	DRSC14877	-0.414	-6.07	0.607
CG33203	DRSC23428	0.727	-0.569	0.209
CG11263	DRSC09832	0.91	1.45	0.258
CG34302	DRSC38824	-0.998	0.169	-0.861
CG18765	DRSC15392	0.728	-0.291	0.863
Osi1 (Osiris 1)	DRSC12271	-1.08	-0.331	-1.26
Nepl21 (Neprilysin-like 21)	DRSC14133	0.109	0.963	2.24
hale (hale-bopp)	DRSC10882	0.788	0.883	0.635
hale (hale-bopp)	DRSC28772	-2.83	0.517	1.2
CG12567	DRSC37926	1.49	1	-0.541
if (inflated)	DRSC20341	-0.198	0.615	-4.84
CG8028	DRSC20075	0.623	0.827	1.11
nero	DRSC15432	-0.466	-8.01	0.051
CG11878	DRSC14422	0.381	0.502	0.288
CG11878	DRSC24563	-1.25	0.0342	-1.01
CG15553	DRSC15091	0.251	-0.05	-0.0867
CG2574	DRSC19862	0.487	-0.0254	0.93
CG11768 + CG34135	DRSC38826	0.903	0.98	-0.677
ecd (ecdysoneless)	DRSC08574	1.12	0.563	0.863
ThrRS (Threonyl-tRNA synthetase)	DRSC02843	-1.58 (active)	-1.83	-5.39
CG14720	DRSC14942	-0.934	0.245	-0.0213
CG3473	DRSC01915	-2.76	0.344	-0.403
Mtch	DRSC08679	-0.0662	-0.717	0.688
Cyt-c1L (Cytochrome c1-like)	DRSC14860	-3.35	-0.184	0.927
Cyt-c1L (Cytochrome c1-like)	DRSC22096	-0.357	0.599	0.224
Cyt-c1L (Cytochrome c1-like)	DRSC28229	0.686	0.589	1.13
Sirt7 (Sirtuin 7)	DRSC14294	1.46	-10.7	0.366
Sirt7 (Sirtuin 7)	DRSC26219	-0.0903	-0.48	0.399
CG17778	DRSC18504	1.46	1.53	1.87
CG14764	DRSC05072	-1.55	-0.907	-0.777
CG14764	DRSC06498	-4.56	1.2	-0.114
CG14764	DRSC06844	-0.441 (active)	-1.6	-3.1
CG14764	DRSC40525	-1.49	-0.72	-0.238

3 entries from above, reformatted:
{"gene":"speck","dsRNA":"DRSC27654","Wolbachia per cell robust z, rep 1":0.802,"Wolbachia per cell robust z, rep 2":0.291,"Wolbachia per cell robust z, rep 3":1.02}
{"gene":"ana1 (anastral spindle 1)","dsRNA":"DRSC16079","Wolbachia per cell robust z, rep 1":0.491,"Wolbachia per cell robust z, rep 2":1.37,"Wolbachia per cell robust z, rep 3":0.509}
{"gene":"ana1 (anastral spindle 1)","dsRNA":"DRSC21825","Wolbachia per cell robust z, rep 1":-0.581,"Wolbachia per cell robust z, rep 2":-0.543,"Wolbachia per cell robust z, rep 3":0.141}
